Experimental data: patent US20160095865A1, “APPLICATION OF ENROFLOXACIN SALT IN PREPARATION OF ORAL PREPARATION FOR PIGS” (GUANGZHOU INSIGHTER BIOTECHNOLOGY CO., LTD., priority 2013, published 2016)

What was measured:
Assay type in all cases: in vivo
[1] = tested on: duroc-landrace-yorkshire hybrid pigs; assay: Influence of enrofloxacin base, sodium salt and hydrochloride on palatability of pig feed (Embodiment 2); details: for Total feed intake: 10 pigs, free feed intake after 12 h fast; for Average feed intake: per pig, after 12 h fast, control 1.289 kg
Protocol: Enrofloxacin base, enrofloxacin sodium and enrofloxacin hydrochloride were respectively added in feed in each group. All the test pigs were synchronously fasted for 12 h before testing. The test pigs in each group were respectively subjected to free feed intake of feed containing enrofloxacin in different forms after the 12 h fast. […] Feed consumption of different test groups was subjected to statistics and the influence of different forms of the enrofloxacin added in the feed on the feed intake of the pigs was evaluated. The pure feed which was not added with the enrofloxacin or the salt thereof was taken as control.

[2] = tested on: duroc-landrace-yorkshire hybrid pigs; assay: Dose research of influence of enrofloxacin copper on palatability of pig feed (Embodiment 5); details: for Average feed intake: after 12 h fast, control 1.358 ± 0.381 kg
[3] = tested on: duroc-landrace-yorkshire hybrid pigs; assay: Influence of long-term (7 days) application of enrofloxacin zinc, copper and silver on feed intake of pigs (Embodiment 7); details: 100 ppm in feed, 7 continuous days; for Total feed intake: 10 × 3 pigs, control 458.9 kg
[4] = tested on: duroc-landrace-yorkshire hybrid pigs; assay: Dose research of influence of enrofloxacin zinc on palatability of pig feed (Embodiment 4); details: after 12 h fast, control 1.324 ± 0.315 kg
[5] = tested on: duroc-landrace-yorkshire hybrid pigs; assay: Dose research of influence of enrofloxacin silver on palatability of pig feed (Embodiment 6); details: after 12 h fast, control 1.385 ± 0.406 kg
[6] = 5 ppm in feed (calculated by enrofloxacin)
[7] = 25 ppm in feed (calculated by enrofloxacin)
[8] = 100 ppm in feed (calculated by enrofloxacin)

Structure (SMILES): CCN1CCN(c2cc3c(cc2F)c(=O)c(C(=O)O)cn3C2CC2)CC1 [enrofloxacin sodium]
- Total feed intake [1, 6]: 6.34 kg
- Average feed intake ([1]; 5 ppm in feed): 0.634 kg
- Total feed intake [1, 7]: 3.47 kg
- Average feed intake ([1]; 25 ppm in feed): 0.347 kg
- Total feed intake [1, 8]: 0.76 kg
- Average feed intake ([1]; 100 ppm in feed): 0.076 kg

Structure (SMILES): CCN1CCN(c2cc3c(cc2F)c(=O)c(C(=O)[O-])cn3C2CC2)CC1.CCN1CCN(c2cc3c(cc2F)c(=O)c(C(=O)[O-])cn3C2CC2)CC1.[Cu+2] [enrofloxacin copper]
- Average feed intake ([2]; 100 ppm in feed): 1.355 ± 0.397^A kg
- Average feed intake ([2]; 250 ppm in feed): 1.369 ± 0.349^A kg
- Average feed intake ([2]; 500 ppm in feed): 1.352 ± 0.351^A kg
- Feed intake compared with control group (in words) ([2]; different doses (100-500 ppm) in feed): no significant difference
- Total feed intake [3]: 463.5 kg
- Average feed intake (average daily feed intake) ([3]; control […] ± 0.316 kg): 2.207 ± 0.333^A kg

Structure (SMILES): CCN1CCN(c2cc3c(cc2F)c(=O)c(C(=O)O)cn3C2CC2)CC1 [enrofloxacin base, enrofloxacin]
- Total feed intake [1, 6]: 6.81 kg
- Average feed intake ([1]; 5 ppm in feed): 0.681 kg
- Total feed intake [1, 7]: 3.32 kg
- Average feed intake ([1]; 25 ppm in feed): 0.332 kg
- Total feed intake [1, 8]: 0.86 kg
- Average feed intake ([1]; 100 ppm in feed): 0.086 kg

Structure (SMILES): CCN1CCN(c2cc3c(cc2F)c(=O)c(C(=O)O)cn3C2CC2)CC1 [enrofloxacin hydrochloride]
- Total feed intake ([1]; 5 ppm in feed (calculated by enrofloxacin), hydrochloride): 6.51 kg
- Average feed intake ([1]; 5 ppm in feed, hydrochloride): 0.651 kg
- Total feed intake ([1]; 25 ppm in feed (calculated by enrofloxacin), hydrochloride): 3.41 kg
- Average feed intake ([1]; 25 ppm in feed, hydrochloride): 0.341 kg
- Total feed intake ([1]; 100 ppm in feed (calculated by enrofloxacin), hydrochloride): 0.81 kg
- Average feed intake ([1]; 100 ppm in feed, hydrochloride): 0.081 kg

Structure (SMILES): CCN1CCN(c2cc3c(cc2F)c(=O)c(C(=O)[O-])cn3C2CC2)CC1.CCN1CCN(c2cc3c(cc2F)c(=O)c(C(=O)[O-])cn3C2CC2)CC1.[Zn+2] [enrofloxacin zinc]
- Average feed intake ([4]; 100 ppm in feed): 1.335 ± 0.342^A kg
- Average feed intake ([4]; 250 ppm in feed): 1.319 ± 0.297^A kg
- Average feed intake ([4]; 500 ppm in feed): 1.338 ± 0.259^A kg
- Total feed intake [3]: 468.3 kg

Structure (SMILES): CCN1CCN(c2cc3c(cc2F)c(=O)c(C(=O)[O-])cn3C2CC2)CC1.[Ag+] [enrofloxacin silver]
- Average feed intake ([5]; 100 ppm in feed): 1.380 ± 0.416^A kg
- Average feed intake ([5]; 250 ppm in feed): 1.389 ± 0.447^A kg
- Average feed intake ([5]; 500 ppm in feed): 1.379 ± 0.388^A kg
- Total feed intake [3]: 460.1 kg

Structures can show the parent of a compound that is named as a salt.
